Mtb glucose medium: 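Whole-cell growth test on Mycobacterium tuberculosis, read after 3 days in glucose-containing 7H9 medium; the read-out is not stated. Concentration: 500 µM. The record gives no direction; compounds that gave an IC50 in retests scored well above the rest, so higher reads as more growth inhibition. Size under these conditions: about 18,000 compounds, about 1,400 of them at 50% or above in at least one test.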
Mtb cholesterol medium: 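Growth of Mycobacterium tuberculosis over 4 days (cholesterol / DPPC medium with tyloxapol); the read-out is not stated. Tested at 500 µM. Higher reads as more growth inhibition (inferred: compounds with an IC50 in retests scored well above the rest). Of about 18,000 compounds tested this way, about 900 (5%) reached 50% or more in at least one test.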

Values are the deposited “Percent Effect”, in %.
How 0% and 100% were set is not recorded. Most values in the screen are low, and negative values occur.
The entries come from a sample that favours strong results.

{"smiles": "CC(C)NC(=O)Nc1cccc(S(=O)(=O)C(F)F)c1", "Mtb glucose medium": 69.98, "Mtb cholesterol medium": 69.64}
{"smiles": "O=C(NCCN1CCC(O)CC1)c1cncc(Cl)c1", "Mtb cholesterol medium": -6.08}
{"smiles": "CC(CCc1ccccc1)CC(=O)N(C)CC(N)=O", "stereo": "centres undefined", "Mtb glucose medium": 44.47, "Mtb cholesterol medium": 41.18}
{"smiles": "O=C(Cn1cc(Cl)cn1)N[C@@H]1CCNC[C@H]1O", "Mtb cholesterol medium": -3.35}
{"smiles": "Cc1cc(OCC(=O)NCc2ccccc2F)no1", "Mtb glucose medium": 65.06, "Mtb cholesterol medium": 50.7}
{"smiles": "NS(=O)(=O)N1CCN(CC=Cc2ccc(F)cc2)CC1", "Mtb glucose medium": 52.88, "Mtb cholesterol medium": 55.94}
{"smiles": "CNC(=O)CSC(C)C(=O)N(C)C(C)C", "stereo": "centres undefined", "Mtb glucose medium": -0.1738}
{"smiles": "CC(C)CCNC(=O)Nc1ccc(-n2cccn2)nc1", "Mtb glucose medium": 55.13, "Mtb cholesterol medium": 63.13}
{"smiles": "NC(=O)C1CCCCN1CC(=O)Nc1cccc(F)c1", "stereo": "centres undefined", "Mtb cholesterol medium": -17.23}
{"smiles": "CC(=O)NC1CCN(C(C)C)CC1", "Mtb glucose medium": -2.835}
{"smiles": "CSc1nc(C(=O)N2CCSCC2)c2ccccn12", "Mtb cholesterol medium": 5.485}
{"smiles": "CCCNC(=O)CN1CCC(c2nc(C)no2)CC1", "Mtb glucose medium": 7.015}
{"smiles": "CCC(=O)NCc1ccncc1OCC(F)(F)F", "Mtb glucose medium": 5.664}
{"smiles": "Cc1ccnc(NC(C)c2ccc(S(N)(=O)=O)cc2)c1", "stereo": "centres undefined", "Mtb cholesterol medium": 8.925}
{"smiles": "CCn1ccc(C(=O)NC(C)c2ccccc2)n1", "stereo": "centres undefined", "Mtb glucose medium": 76.34, "Mtb cholesterol medium": 74.57}
{"smiles": "CC(Nc1ccc(OC(F)F)cn1)c1ccncc1", "stereo": "centres undefined", "Mtb glucose medium": 72.14, "Mtb cholesterol medium": 82.32}
{"smiles": "CCCc1cc(C(=O)N2CCCN(C)CC2)cs1", "Mtb glucose medium": 57.51, "Mtb cholesterol medium": 37.91}
{"smiles": "CC(C)(C)OC(=O)N[C@H]1CS(=O)(=O)[C@@H]2CNC[C@H]12", "Mtb cholesterol medium": 5.562}
{"smiles": "CCCN(CCO)CCC(=O)N1CCc2sccc2C1", "Mtb glucose medium": 47.41}
{"smiles": "Cc1cc(C(=O)N2CC(N3CCOCC3)C2)ccc1O", "Mtb glucose medium": 1.696}
{"smiles": "CS(=O)(=O)c1ccc(NC(=O)CN)cc1", "Mtb glucose medium": 15.33, "Mtb cholesterol medium": 3.819}
{"smiles": "CN(CCO)S(=O)(=O)N1CCNCC1", "Mtb glucose medium": 5.417}
{"smiles": "CC(NC(=O)C1(N)Cc2ccccc2C1)C1CC1", "stereo": "centres undefined", "Mtb cholesterol medium": -16.98}
{"smiles": "CCN1CCCC1CNC(=O)C(C)(C)C", "stereo": "centres undefined", "Mtb glucose medium": -4.794}
{"smiles": "OCCCn1nnc(-c2ccccc2)n1", "Mtb glucose medium": 66.21, "Mtb cholesterol medium": 57.87}
{"smiles": "CN(C)C(CNC(=O)Nc1cccnc1)c1ccco1", "stereo": "centres undefined", "Mtb cholesterol medium": 6.834}
{"smiles": "O=C(NC1CC1)c1ccccc1C(F)(F)F", "Mtb glucose medium": -2.475}
{"smiles": "CC(=O)Nc1cccc(OCCNc2ccccn2)c1", "Mtb glucose medium": 45.08}
{"smiles": "CCOc1ccccc1-n1c(C)cc(=O)[nH]c1=O", "Mtb glucose medium": -1.189}
{"smiles": "COc1cccc(C(CO)Nc2ncccc2C#N)c1", "stereo": "centres undefined", "Mtb glucose medium": 24.5, "Mtb cholesterol medium": 6.022}
{"smiles": "Cc1nsc(N2CCN(CCS(C)(=O)=O)CC2)n1", "Mtb cholesterol medium": -3.793}
{"smiles": "CC1CN(C)CCN1CC(=O)NCc1ccco1", "stereo": "centres undefined", "Mtb glucose medium": -2.235}
{"smiles": "CN(C)c1ccc(C(=O)NCC2CCCO2)cc1", "stereo": "centres undefined", "Mtb glucose medium": 32.03}
{"smiles": "Nc1nnc(SCCC(=O)Nc2ccc(Cl)cn2)s1", "Mtb cholesterol medium": 3.798}
{"smiles": "COCCn1ccnc1CN1CCCC(NC(C)=O)C1", "stereo": "centres undefined", "Mtb cholesterol medium": 2.936}
{"smiles": "CO[C@@H]1COCC[C@H]1NC(=O)CCCn1cncn1", "Mtb cholesterol medium": 11.63}
{"smiles": "CNC(=O)C1(C)CCN(C(=O)c2n[nH]c(N)c2Cl)CC1", "Mtb glucose medium": 7.64}

For reference, 2 entries once more:

* CCCNC(=O)CN1CCC(c2nc(C)no2)CC1 | Mtb glucose medium: 7.015%
* CNC(=O)C1(C)CCN(C(=O)c2n[nH]c(N)c2Cl)CC1 | Mtb glucose medium: 7.64%

Source: ChEMBL document CHEMBL3988442, “University of Dundee, Small-Polar-MMV Screening Library” (2021).